Pooled drug test results. Numbers come from NIAID ChemDB, via PubChem.

All rows: whole-cell or culture tests; organism: Hepatitis B virus; read by: ELISA / antigen; measure: EC50

Blank or dashed fields: not listed here.

smiles,setting,cells,result
O=C(/C=C/c1ccc(O)c(O)c1)OC1[C@@H](O)CC(O)(C(=O)O)C[C@@H]1O,,HepG2.2.15,>1580 µM
COc1ccc2[nH]cc(C3C=C4[C@@](C)(CC[C@@]5(C)[C@@H]6C[C@](C)(C(=O)O)CC[C@]6(C)CC[C@]45C)c4cc(O)c(O)cc43)c2c1,,HepG2 2.2.15,64.4 µM
COC(C)c1ccc(O)c(O)c1,,HepG2.2.15,1640 µM
C[C@H]1[C@H](C)C[C@@H](C(=O)O[C@@H]2O[C@H](CO[C@@H]3O[C@H](CO)[C@@H](O[C@@H]4O[C@H](C)[C@H](O)[C@@H](O)[C@H]4O)[C@H](O)[C@H]3O)[C@@H](O)[C@H](O)[C@H]2O)C2CC[C@]3(C)C(=CC[C@@H]4[C@@]5(C)C[C@@H](O)[C@H](O)[C@@](C)(CO)[C@@H]5CC[C@]43C)[C@H]21,14 d,HepG2.2.15,52.1 µM
C=C1CC[C@@H](O)[C@]2(C)CC[C@@H](C(C)C)[C@H](O)[C@@H]12,,HepG2.2.15,155 µM
CC1=C(O)C(=O)C=C2C1=CC=C1[C@@]2(C)CC[C@@]2(C)[C@@H]3C[C@](C)(C(=O)N(C)C)CC[C@]3(C)CC[C@]12C,,HepG2 2.2.15,11.9 µM
COc1cc2oc(=O)ccc2cc1O,,HepG2.2.15,1210 µM
O=C(/C=C/c1ccc(O)c(O)c1)O[C@@H]1[C@H](O)C[C@@](O)(C(=O)O)C[C@H]1OC(=O)/C=C/c1ccc(O)c(O)c1,,HepG2.2.15,202.7 µM
COc1cc2c(c(C)c1OC)CC=C1[C@@]2(C)CC[C@@]2(C)[C@@H]3C[C@](C)(CO)CC[C@]3(C)CC[C@]12C,,HepG2 2.2.15,72.5 µM
COC(=O)C1(O)C[C@H](O)C(OC(=O)/C=C/c2ccc(O)c(O)c2)[C@@H](O)C1,,HepG2.2.15,>2450 µM
CC1=C(O)C(=O)C=C2C1=CC=C1[C@@]2(C)CC[C@@]2(C)[C@@H]3C[C@](C)(C(=O)N4CCOCC4)CC[C@]3(C)CC[C@]12C,,HepG2 2.2.15,14.6 µM
COc1cc(C=O)cc(OC)c1O,,HepG2.2.15,763 µM
O=C(/C=C/c1ccc(O)c(O)c1)O[C@@H]1[C@@H](OC(=O)/C=C/c2ccc(O)c(O)c2)C[C@@](O)(C(=O)O)C[C@@H]1O,,HepG2.2.15,202.7 µM
COc1ccc([C@H]2OC[C@H]3[C@@H]2CO[C@@H]3c2ccc(OC)c(O)c2)cc1O,,HepG2.2.15,382 µM
COC(=O)[C@]1(C)CC[C@]2(C)CC[C@]3(C)C4=CC=C5C(=CC(=O)C(OC)=C5C)[C@]4(C)CC[C@@]3(C)[C@@H]2C1,,HepG2 2.2.15,22.1 µM
COC(=O)[C@]1(O)C[C@H](OC(=O)/C=C/c2ccc(O)c(O)c2)[C@@H](O)[C@@H](O)C1,,HepG2.2.15,2490 µM
Nc1ccn([C@@H]2CS[C@H](CO)O2)c(=O)n1,,HepG2 2.2.15,192.1 µM
CC(c1ccc(O)c(O)c1)N1C=NC2C(N)=NC=NC21,,HepG2.2.15,1420 µM

2 of the rows above, restated:

smiles,setting,cells,result
COc1ccc2[nH]cc(C3C=C4[C@@](C)(CC[C@@]5(C)[C@@H]6C[C@](C)(C(=O)O)CC[C@]6(C)CC[C@]45C)c4cc(O)c(O)cc43)c2c1,,HepG2 2.2.15,64.4 µM
C[C@H]1[C@H](C)C[C@@H](C(=O)O[C@@H]2O[C@H](CO[C@@H]3O[C@H](CO)[C@@H](O[C@@H]4O[C@H](C)[C@H](O)[C@@H](O)[C@H]4O)[C@H](O)[C@H]3O)[C@@H](O)[C@H](O)[C@H]2O)C2CC[C@]3(C)C(=CC[C@@H]4[C@@]5(C)C[C@@H](O)[C@H](O)[C@@](C)(CO)[C@@H]5CC[C@]43C)[C@H]21,14 d,HepG2.2.15,52.1 µM

Rows are shuffled and stem from different studies. ECn is the concentration giving n% inhibition of infection, replication or growth.